{"source": "patent US20050020582A1", "about": "(priority 2001, published 2005)", "target": "protease resistant PrP^Sc (Mus musculus, UniProt P04925)", "conditions": "ScN2a cells; for PrP^Sc inhibition potency compared with quinacrine: FIG. 3; for anti-PrP^Sc effect (inhibition of PrP^Sc formation or accumulation): a week of treatment, in the range tested", "data": [{"compound": "CCN(CC)CCCC(C)Nc1ccnc2cc(Cl)ccc12", "note": "(stereo not shown)", "values": [{"measurement": "PrP^Sc inhibition potency compared with quinacrine", "result": "did not inhibit PrP^Sc at the same potency as quinacrine"}]}, {"compound": "CN(C)CCCN1c2ccccc2Sc2ccc(Cl)cc21", "note": "[chlorpromazine]", "values": [{"measurement": "amount of PrP^Sc diminished", "setting": "2 μM dose", "result": 50, "unit": "%"}, {"measurement": "PrP^Sc inhibition after seven days of treatment", "setting": "seven days, FIG. 2a", "result": "substantial effect"}, {"measurement": "PrP^Sc inhibition after two days of treatment", "setting": "two days, FIG. 2a", "result": "weak effect"}]}, {"compound": "O=C(CCCN1CCC(O)(c2ccc(Cl)cc2)CC1)c1ccc(F)cc1", "values": [{"measurement": "anti-PrP^Sc effect (inhibition of PrP^Sc formation or accumulation)", "result": "did not inhibit PrP^Sc formation or accumulation"}]}, {"compound": "CN(C)c1ccc2nc3ccc(=[N+](C)C)cc-3sc2c1", "values": [{"measurement": "anti-PrP^Sc effect (inhibition of PrP^Sc formation or accumulation)", "result": "did not exhibit any anti-PrP^Sc effects"}]}, {"compound": "CCN(CC)CCCC(C)Nc1cc(OC)cc2cccnc12", "note": "(stereo not shown)", "values": [{"measurement": "PrP^Sc inhibition potency compared with quinacrine", "result": "did not inhibit PrP^Sc at the same potency as quinacrine"}]}]}
